Patent publication US20070248619A1, “New pharmaceutical composition from natural materials for regulating immunity, its preparation method and use” (priority 2006, published 2007)

System: H9 cells infected by HIV-1
Assay: Co-cultivation experiment: fusion of HIV-1-infected H9 cells with C8166 cells
Conditions: C8166 + HIV-1-infected H9 cells, three days

Dextran Sulfate [DS]
IC50 inhibited fusion (head prints TC50): 5.71 µg/mL
